Data on two sequences can be found in article PMC9603813, “Genome-Wide Analysis Reveals that PhoP Regulates Pathogenicity in Riemerella anatipestifer”.

This data set has as its target T1, His6-PhoP (Riemerella anatipestifer RA-YM) (UniProt E4TAE7).
T1 sequence (looked up, limits assumed): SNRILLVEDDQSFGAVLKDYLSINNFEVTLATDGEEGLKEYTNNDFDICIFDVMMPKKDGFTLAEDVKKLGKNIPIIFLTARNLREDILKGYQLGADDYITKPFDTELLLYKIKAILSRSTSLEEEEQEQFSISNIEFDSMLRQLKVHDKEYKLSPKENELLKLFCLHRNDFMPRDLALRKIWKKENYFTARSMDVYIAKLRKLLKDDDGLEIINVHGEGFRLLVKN
In words: EMSA. To be noted: recombinant protein, protein details: His6 (pET-28a), label: 5' biotin on strand 1. Background: A gel shift assay detects complexes by their altered migration in electrophoresis.

[1] abbreviates: phosphorylated by acetyl phosphate.

For at least one entry, the source does not settle the construct or the ends of the probe. At least one verdict rests on a figure or table, not on a statement of the authors. Tags and fusion partners may be left off the protein sequences shown.

Consider “GTTATCAAATTTTTATGATAAAATTAGATGCTGTT (double strand) [dnaG motif probe]”, for which the binding result is given as “binds” under setting [1] and “binds” (unphosphorylated).
Consider “TAATTTAACAAACTTTAACACAAATTTAGCTTAAT (double strand) [moxR motif probe]”, for which the binding result was “binds” under setting [1] and “binds” (unphosphorylated).
